Test results reported in PMC4369403.

Key:
[1] = tested on: CC(C)=CCNc1ncnc2c1ncn2[C@@H]1O[C@H](COP(=O)(O)O)[C@@H](O)[C@H]1O; assay: purified protein
[2] = tested on: Nc1ncnc2c1ncn2[C@@H]1O[C@H](COP(=O)(O)O)[C@@H](O)[C@H]1O; assay: purified protein

Substance: Rv1205 (Log; Rv1205-His6) (Mycobacterium tuberculosis H37Rv)
- Km [1]: 5.6 µM
- Km [2]: 73.1 µM
